# Reference: patent publication US20240043504A1
# “And” between values parts separate entries of the source, which are not always exact repeats. Equal values may be shown once.
# Target: UNMODIFIED-SARS-CoV-2 Spike Protein (RBD)(R319-F541).mmH (SARS-CoV-2)
substance,measurement,value
Human_ACE2 (from UniProt Q9BYF1 18-740) (receptor; other documents disagree on this pair),Binding signal (MFI),5730 MFI and 10700 MFI and 9270 MFI
